Several values for one entry are separate records, joined by “and”; a condition that tells them apart may be missing. Equal entries are not always repeated.
Tested on: L. donovani MHOM-ET-67/L82
Assay: Antileishmanial assay (axenic amastigotes, resazurin viability)
Format: cell-based, Leishmania donovani
Details: IC50 (L6)/IC50 (L. donovani)
Experimental: Serial dilution assays with 11 dilution steps in 96-well plates were used in order to determine the IC50 values of the generated aurachin D analogs against P. falciparum NF54 (erythrocytic stages), T. brucei rhodesiense STIB 900 (bloodstream forms), T. cruzi Tulahuen C4 (intracellular amastigotes) and L. donovani MHOM-ET-67/L82 (axenic amastigotes). Potential cytotoxic effects were evaluated with L6 myoblast cells (Table 2). Evaluation of antileishmanial activity was carried out with axenically grown amastigotes of Leishmania donovani MHOM-ET-67/L82, as previously described. For this, the amastigotes were cultured at 37 °C and pH 5.4 in SM medium supplemented with 10% heat-inactivated fetal bovine serum under an atmosphere of 5% CO2 in air. Following a 3-day exposure to test compounds, the viability of amastigote parasites was quantified using the dye resazurin by monitoring the reductive environment of living cells. Fluorescence development was expressed as percentage of the control, and IC50 values were calculated. Miltefosine was used as positive control.

Row | Compound | Antileishmanial S.I.
1 | CC(C)=CCC/C(C)=C/CC/C(C)=C/Cc1c(C)[nH]c2ccccc2c1=O [Compound 1, aurachin D] | 2970 and 2969.5
2 | CC(C)=CCC/C(C)=C/CC/C(C)=C/Cc1c[nH]c2ccccc2c1=O [Compound 2, 2-Desmethyl aurachin D] | 13.2
3 | CC(C)=CCC/C(C)=C/CC/C(C)=C/Cc1c(C)[nH]c2ccc(C)cc2c1=O [Compound 3, 6-Methyl aurachin D] | 4.3
4 | CC(C)=CCC/C(C)=C/CC/C(C)=C/Cc1c(C)[nH]c2cc(C)ccc2c1=O [Compound 4, 7-Methyl aurachin D] | 7.2
5 | COc1ccc2[nH]c(C)c(C/C=C(\C)CC/C=C(\C)CCC=C(C)C)c(=O)c2c1 [Compound 5, 6-Methoxy aurachin D] | 16.2
6 | COc1ccc2c(=O)c(C/C=C(\C)CC/C=C(\C)CCC=C(C)C)c(C)[nH]c2c1 [Compound 6, 7-Methoxy aurachin D] | 4.7
7 | CC(C)=CCC/C(C)=C/CC/C(C)=C/Cc1c(C)[nH]c2ccc(F)cc2c1=O [Compound 7, 6-Fluoro aurachin D] | 203.9
8 | CC(C)=CCC/C(C)=C/CC/C(C)=C/Cc1c(C)[nH]c2ccc(Cl)cc2c1=O [Compound 8, 6-Chloro aurachin D] | 18.9
9 | CC(C)=CCC/C(C)=C/CC/C(C)=C/Cc1c(C)[nH]c2cc(Cl)ccc2c1=O [Compound 9, 7-Chloro aurachin D] | 5.9
10 | CC(C)=CCC/C(C)=C/CC/C(C)=C/Cc1c(C)[nH]c2ccc(Br)cc2c1=O [Compound 10, 6-Bromo aurachin D] | 7.7

From paper PMC9919615, “Generation of Aurachin Derivatives by Whole-Cell Biotransformation and Evaluation of Their Antiprotozoal Properties” (Molecules, 2023)
